For at least one entry, the source does not settle the construct or the ends of the probe. For some assays here: At least one verdict was read from the data and is not stated in words by the source.
Legend:
[1] = tested on: Rv0348 (MosR) + DevR~P (phosphorylated DevR); assay: EMSA (supershift); details: recombinant protein; label: none (ethidium bromide stain); probe letters rebuilt from the primers and the genome
[2] = target: DevR~P (phosphorylated DevR) (UniProt P9WMF9); assay: EMSA; details: recombinant protein; protein details: His6 (N-terminal by name His6-DevR); label: none (ethidium bromide stain); probe letters rebuilt from the primers and the genome

## TTACTGGCGGGGACCGCTATCTCCCAGGGGCGTTGGTCCCCACCTGAGGGCCGTTAGTCCTTATCGACCGATGACAGACGCAACCCGTCAGGGCGAGAATGAATCTCACCTATCGCACGGGTGGCTCGTCCAGGTCCACAACCATCGCCCAGCTTTTCACAGCAAAGTCCCAGAAATGGCTTACAGTTGCCGACAGCTGCCGAACCAGCGGCCGTC (double strand) [Rv3134c promoter fragment (devR operon promoter)]
[1]
  binding result: binds
[2]
  binding result: binds

From publication PMC6868718, “Multiple transcription factors co-regulate the Mycobacterium tuberculosis adaptation response to vitamin C” (BMC Genomics, 2019)
